Measurements reported in publication PMC8279492, “Quinolinonyl Non-Diketo Acid Derivatives as Inhibitors of HIV-1 Ribonuclease H and Polymerase Functions of Reverse Transcriptase” (Journal of Medicinal Chemistry, 2021).

What was measured:
HIV-1 replication = HIV-1 replication in HeLa-CD4-LTR-β-gal reporter cells; format: cell-based; conditions: supplement CSV; ratio CC50 / EC50
Description: HIV-1 replication was monitored using HeLa-CD4-LTR-β-gal reporter cells as previously described.[69] Briefly, β-galactosidase activity was monitored 24 h post infection using a replication-competent HIV produced in-house (H9-laï coculture) and a serial dilution of molecules or an equivalent volume of DMSO. In parallel, compounds’ toxicity was determined at 24 h in the same cell line using CellTiter 96 AQueous One Solution Cell Proliferation Assay (Promega, France).

Q475A HIV-1 RT RNase H = assay: RNase H assay, point-mutant Q475A RT; format: biochemical
Description: (§1) An activity curve was performed for all of the enzymes (Figure S1), and a concentration was chosen in the linear dose-response range to perform the enzymatic-inhibition assays.
(§2) Amino acid substitutions were introduced into the p66 HIV-1 RT subunit of a HIV-1 RT using a QuikChange mutagenesis kit, following the manufacturer’s instructions (Agilent Technologies Inc., Santa Clara, CA).
(§3) The HIV-1 RT-associated RNase H activity was measured as described.[68] Briefly, the reaction was carried out in a black 96-well plate in a total volume of 100 μL. […] Experiments were performed in duplicate and replicated at least two times. Data were analyzed as described.[36]

Y501A HIV-1 RT RNase H = assay: RNase H assay, point-mutant Y501A RT; format: biochemical
Description: as §1, §2, §3

Row | SMILES | SI (HIV-1 replication) | other results
1 | CCOC(=O)c1cn(Cc2ccc(F)cc2)c2ccc(OCc3ccc(Cl)c(Cl)c3)cc2c1=O [5n, Ethyl 6-((3,4-Dichlorobenzyl)oxy)-1-(4-fluorobenzyl)-4-oxo-1,4-dihydroquinoline-3-carboxylate] | 1.4 | 
2 | O=C(/C=C/c1ccc2c(c1)c(=O)c(C(=O)O)cn2Cc1ccc(F)cc1)c1ccccc1 [4k, (E)-1-(4-Fluorobenzyl)-4-oxo-6-(3-oxo-3-phenylprop-1-en-1-yl)-1,4-dihydroquinoline-3 carboxylic Acid] | 3.1 | 
3 | O=C(O)c1cn(Cc2ccc(F)cc2)c2ccc(OCc3ccc4c(c3)OCO4)cc2c1=O [4q, 6-(Benzo[d][1,3]dioxol-5-ylmethoxy)-1-(4-fluorobenzyl)-4-oxo-1,4-dihydroquinoline-3-carboxylic Acid] | >17.7 | 
4 | CCOC(=O)/C=C/C(=O)/C=C/c1cccn1Cc1ccccc1Cl [compound 11, reference compound] | > 13.7 | 
5 | O=C(O)c1cn(Cc2ccc(F)cc2)c2ccc(OCc3ccc(OCc4ccccc4)cc3)cc2c1=O [4t, 6-((4-(Benzyloxy)benzyl)oxy)-1-(4-fluorobenzyl)-4-oxo-1,4-dihydroquinoline-3-carboxylic Acid] | >57.8 | Fold increase in IC50 compared to wt RT, Q475A (Q475A HIV-1 RT RNase H): 8.2 fold; Q475A (Fold) (Q475A HIV-1 RT RNase H; supplement CSV, vs wt): 8.2; Fold increase in IC50 compared to wt RT, Y501A (Y501A HIV-1 RT RNase H): > 52.4 fold; Y501A (Fold) (Y501A HIV-1 RT RNase H; supplement CSV, vs wt): >52.4
6 | O=C(O)c1cn(Cc2ccc(F)cc2)c2ccc(OCc3cccc(Cl)c3Cl)cc2c1=O [4m, 6-((2,3-Dichlorobenzyl)oxy)-1-(4-fluorobenzyl)-4-oxo-1,4-dihydroquinoline-3-carboxylic Acid] | >15 | 
7 | O=C(O)c1cn(Cc2ccc(F)cc2)c2ccc(OCc3ccccc3)cc2c1=O [4l, 6-(Benzyloxy)-1-(4-fluorobenzyl)-4-oxo-1,4-dihydroquinoline-3-carboxylic Acid] | >8.6 | 
8 | O=C(O)c1cn(Cc2ccc(F)cc2)c2ccc(OCc3ccc(Cl)c(Cl)c3)cc2c1=O [4n, 6-((3,4-Dichlorobenzyl)oxy)-1-(4-fluorobenzyl)-4-oxo-1,4-dihydroquinoline-3-carboxylic Acid] | >12.4 | 
9 | O=C(O)c1cn(Cc2ccc(F)cc2)c2ccc(OCc3ccc(-c4ccccc4)cc3)cc2c1=O [4s, 6-([1,1′-Biphenyl]-4-ylmethoxy)-1-(4-fluorobenzyl)-4-oxo-1,4-dihydroquinoline-3-carboxylic Acid] | >40 | 
10 | CCOC(=O)c1cn(Cc2ccc(F)cc2)c2ccc(OCc3cccc(Cl)c3Cl)cc2c1=O [5m, Ethyl 6-((2,3-Dichlorobenzyl)oxy)-1-(4-fluorobenzyl)-4-oxo-1,4-dihydroquinoline-3-carboxylate] | 1.2 | 
